Source: PubChem BioAssay AID624099 (ICCB-Longwood, 2012)
Test: 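Knock-downs relieving repression by E2 of an HPV18 LCR luciferase reporter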 (primary screen). Cell system: human C33A cervical carcinoma cells (HPV-negative) stably expressing BPV1 E2 and an HPV18 LCR luciferase reporter. Reagent: siRNA pool against human genes, 40 nM. Time to read-out: 72 h. Detection: 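Per-well luciferase luminescence, z-scored on each plate against the plate mean and SD with control wells left out, then averaged across three replicate plates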. Scale: mean z-score and z-score: higher = stronger reporter signal, weaker E2 silencing. Call rule: 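Mean z ≥ 2 together with z ≥ 2 in two or more of the three replicates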.
The whole screen tested about 21,000 reagents; this is a random part of them. In the full data, 497 (2.4%) were called active. 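Higher z means weaker E2 silencing; only reporter increases were scored, and knock-downs that hurt cell survival may mask genuine repressor factors.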 Unmarked entries are inactive.

Which result is listed for NPSR1-AS1?
mean z-score: -0.12; z-score, replicate A: 0.18; z-score, replicate B: 0; z-score, replicate C: -0.53

For GATD3, what was measured?
mean z-score: -0.53; z-score, replicate A: -0.74; z-score, replicate B: -0.52; z-score, replicate C: -0.33

How did the screen score C20orf202?
mean z-score: 0.37; z-score, replicate A: 0.48; z-score, replicate B: 0.37; z-score, replicate C: 0.25

What is on record for TNNI2?
mean z-score: 1.01; z-score, replicate A: 0.73; z-score, replicate B: 1.04; z-score, replicate C: 1.28

For PON3, how do the results read?
mean z-score: 1.31; z-score, replicate A: 1.56; z-score, replicate B: 1.56; z-score, replicate C: 0.81

What did the screen give for UBR1?
mean z-score: -0.62; z-score, replicate A: -0.57; z-score, replicate B: -0.77; z-score, replicate C: -0.53

With NUDT4, what does the deposit list?
mean z-score: 0.02; z-score, replicate A: 0.4; z-score, replicate B: -0.26; z-score, replicate C: -0.07

Which result is listed for SPRYD7?
mean z-score: -0.47; z-score, replicate A: -0.73; z-score, replicate B: -0.31; z-score, replicate C: -0.36

With PTTG1, what does the deposit list?
mean z-score: 0.37; z-score, replicate A: 0.16; z-score, replicate B: 0.16; z-score, replicate C: 0.79

Which result is listed for TRIL?
mean z-score: 0.52; z-score, replicate A: 0.31; z-score, replicate B: 0.44; z-score, replicate C: 0.8

With LINC02213, what was measured?
mean z-score: 0.73; z-score, replicate A: 0.85; z-score, replicate B: 0.52; z-score, replicate C: 0.83

With NCR2, what does the deposit list?
mean z-score: 1.23; z-score, replicate A: 1.38; z-score, replicate B: 1.46; z-score, replicate C: 0.84
